Pooled drug test results. Numbers come from NIAID ChemDB, via PubChem.

All rows: host cell toxicity; cell line: MRC-5; measure: CC50

An empty or dashed field is not shown.

CCCCCCCCCCCCCCCCCCCCCCSC[C@H](O)COP(=O)(O)C(=O)O ; value: 383 µM
CC(Oc1ccc2ncccc2c1)C(=O)N/N=C/c1ccccc1F ; read by: absorbance ; value: >512 µM
CC(O)C\C=C/C=C\C=C\CCCCCCc1cccc(O)c1O ; read by: WST ; value: 49.58 µM
COc1cc([C@@H]2c3cc(O)c(O)cc3C[C@H]3COC(=O)[C@@H]32)cc(OC)c1OC ; read by: MTT ; value: >10 µg/mL
C/C=C\C=C\C/C=C\CCCCCCCc1cccc(O)c1O ; read by: WST ; value: 7.58 µM
CCO/N=C/c1ccc(OCCC2CCN(c3ccc(C)nn3)CC2)cc1 ; read by: neutral red ; value: >0.1 µg/mL
NC(=S)c1cn([C@H]2C[C@H](O)[C@@H](CO)O2)c2ncnc(N)c12 ; value: 14 µM
CC(Oc1ccc2ncccc2c1)C(=O)N/N=C/c1ccccc1 ; read by: absorbance ; value: >512 µM
CO/N=C/c1ccc(OCCC2CCN(c3nc4ccccc4o3)CC2)cc1 ; read by: neutral red ; value: >0.1 µg/mL
CC(Oc1ccc2ncccc2c1)C(=O)N/N=C/c1ccccc1[N+](=O)[O-] ; read by: absorbance ; value: >512 µM
COc1cc([C@@H]2c3cc4c(cc3[C@H](O)[C@H]3COC(=O)[C@H]23)OCO4)cc(OC)c1OC ; read by: MTT ; value: >10 µg/mL
CC(N)C12CC3CC(CC(C3)C1)C2 ; value: 10–4000 µM
O=C1c2cccc(O)c2C(=O)c2c(O)cccc21 ; value: >41.6 µM
CC(Oc1ccc2ncccc2c1)C(=O)N/N=C/c1cccc(CO)c1 ; read by: absorbance ; value: >512 µM
CCCCCCCCCCCCSCC(COP(=O)([O-])OCC[N+](C)(C)C)OCCCCCCCCC(=O)OCC(=O)OC[C@H]1O[C@@H](n2cc(C)c(=O)[nH]c2=O)C[C@@H]1N=[N+]=[N-] ; read by: neutral red ; value: >100 µM
CCCCCCCCCCCCCCCCOCCCOP(=O)(O)C(=O)O ; value: 320 µM
CCCCCCCCSC[C@H](O)COP(=O)(O)C(=O)O ; value: 100–320 µM
CCCCCCCCCCCCCOCCCOP(=O)(O)C(=O)O ; value: 1000 µM
N/C(=N/O)c1cn([C@H]2C[C@H](O)[C@@H](CO)O2)c2ncnc(N)c12 ; value: 20 µM
NC1=Nc2c(ncn2CCC(/C=C/P(=O)(O)O)CO)C(=O)C1 ; value: >250 µM
CCCCCCCCCCCCCCCCCCOCCCOP(=O)(O)C(=O)O ; value: 660 µM
NC12CC3CC(CC(C3)C1)C2 ; value: 40–1000 µM
CC(Oc1ccc2ncccc2c1)C(=O)N/N=C/c1ccc(CO)cc1 ; read by: absorbance ; value: >512 µM
COc1cc(C2c3c(cc4c(c3OC)OCO4)C[C@H]3COC(=O)[C@H]23)cc(OC)c1OC ; read by: MTT ; value: >10 µg/mL
CCCCCCCCCCCCCCCCCCSC[C@H](O)COP(=O)(O)C(=O)O ; value: 95 µM
O=C1c2ccc(O)c(O)c2C(=O)c2c(O)ccc(O)c21 ; value: 12.5 µM
C=C(C)[C@]12C[C@@H](C)[C@@]34OC(CCCCCCCCCCC)(O[C@@H]1[C@H]3[C@@H]1O[C@]1(CO)[C@@H](O)[C@]1(O)C(=O)C(C)=C[C@H]14)O2 ; read by: MTS ; value: 5.7 µM
O=C1c2ccccc2C(=O)c2c1ccc(O)c2O ; value: >41.6 µM
Cc1cn([C@H]2C[C@H](N=[N+]=[N-])[C@@H](CO)O2)c(=O)[nH]c1=O ; read by: neutral red ; value: >100 µM
Cc1cc(O)c2c(c1)C(=O)c1cc(O)cc(O)c1C2=O ; value: 12.6 µM
CCCCCCCCCCCCCCCCOC[C@@H](O)COP(=O)(O)C(=O)O ; value: 479 µM
CC(=O)Oc1ccc(/C=C/C(=O)O[C@@H]2[C@@H](OC(C)=O)[C@H](C)O[C@@H](Oc3c(-c4ccc(OC(C)=O)cc4)oc4cc(OC(C)=O)cc(OC(C)=O)c4c3=O)[C@@H]2OC(=O)/C=C/c2ccc(OC(C)=O)cc2)cc1 ; value: >8.2 µM
C=C(C)[C@]12C[C@@H](C)[C@@]34OC(CCCCCCCCC)(O[C@@H]1[C@H]3[C@@H]1O[C@]1(CO)[C@@H](O)[C@]1(O)C(=O)C(C)=C[C@H]14)O2 ; read by: MTS ; value: 5.1 µM
CC(Oc1ccc2ncccc2c1)C(=O)N/N=C/c1ccc(Cl)cc1 ; read by: absorbance ; value: >512 µM
CO/N=C/c1ccc(OCCC2CCN(c3ccc(Cl)nn3)CC2)c(C)c1 ; read by: neutral red ; value: >0.1 µg/mL
CCCCCCCCCCCCOCCCOP(=O)(O)C(=O)O ; value: 320 µM
NC(=O)c1cn([C@H]2C[C@H](O)[C@@H](CO)O2)c2ncnc(N)c12 ; value: 1 µM
NC1=Nc2c(ncn2CCCCCP(=O)(O)O)C(=O)C1 ; value: >250 µM
CCO/N=C/c1ccc(OCCC2CCN(c3ccc(Cl)nn3)CC2)cc1 ; read by: visual reading ; value: >1 µg/mL
O=C1c2cccc(O)c2C(=O)c2c(O)cc(CO)cc21 ; value: >37 µM
O=Cc1ccc(OCCC2CCN(c3ccc(Cl)nn3)CC2)cc1 ; read by: visual reading ; value: 30 µg/mL
NC(=O)c1cn([C@@H]2O[C@H](CO)[C@@H](O)[C@@H]2O)c2ncnc(N)c12 ; value: 1.6 µM

The first 5 rows once more:

structure | read by | value
CCCCCCCCCCCCCCCCCCCCCCSC[C@H](O)COP(=O)(O)C(=O)O | - | 383 µM
CC(Oc1ccc2ncccc2c1)C(=O)N/N=C/c1ccccc1F | absorbance | >512 µM
CC(O)C\C=C/C=C\C=C\CCCCCCc1cccc(O)c1O | WST | 49.58 µM
COc1cc([C@@H]2c3cc(O)c(O)cc3C[C@H]3COC(=O)[C@@H]32)cc(OC)c1OC | MTT | >10 µg/mL
C/C=C\C=C\C/C=C\CCCCCCCc1cccc(O)c1O | WST | 7.58 µM

CCn is the concentration with n% toxicity to the cells. Lines come from different laboratories, so protocols vary. a–b is a range or a potency band.